Laboratory results: PMC11005471 (Frontiers in Veterinary Science, 2024)

Tested on: O=C(COP(=O)(O)O)[C@@H](O)[C@H](O)[C@H](O)[C@H](O)COP(=O)(O)O
Assay: purified protein
Conditions: pH 7.4; 30.0 °C

With (Brucella suis 1330) the Km was 11.6 ± 1.9 µM, the Vmax was 14.3 µmol/min/mg and the kcat/Km was 710000 M⁻¹ s⁻¹.
